According to patent US20210395746, “COMPOSITIONS FOR HERPESVIRUS TRANSCRIPTIONAL FEEDBACK CIRCUIT DISRUPTION AND USES THEREOF” (The J. David Gladstone Institutes, a testamentary trust …, published 2021):
For at least one entry, the source does not settle the construct or the ends of the probe.

Columns and labels:
[1] = test system: IE86 (IE2) C-terminal fragment (Human cytomegalovirus); assay: binding assay; conditions: FPLC; concatemer enhances IE86 sequestration relative to 1x; purified recombinant protein
[2] = test system: IE86 (IE2) C-terminal fragment (Human cytomegalovirus); assay: EMSA; conditions: 0-20 uM protein, 30 min room temperature; competed by 20-fold unlabeled crs used as specificity test; purified recombinant protein; label: DIG (EMSA)

Sequence	binding result [1]	binding result [2]
CGTTTAGTGAACCGCGCGCGCGTTTAGTGAACCG (double strand) [C-DOTC (2x) concat]	binds	–
TAATACGACTCACTATAGGGCGAATTGGAGCTCGTTTAGTGAACCGTCAGATCTCTAGAAGCTT (double strand) [crs EMSA probe / 64 bp crs DNA]	–	binds
